The record followed here is PubChem BioAssay AID1259421 (Broad Institute, 2018).

Molecules are shown by their SMILES. The entries are a selection whose mix differs from that of the whole data set. Some salts or complexes appear as unconnected parts, following the source record. The source made the active and inactive calls. Rule as the data show it: active = activity change below about -70%; inconclusive = no clear call, values can overlap the other calls; inactive = above that.

The nature of the assay: Toxoplasma gondii ME49Luc growth in HeLa cells, luciferase, no IFN-y, primary screen (AID 1259421). The note with it: T. gondii ME49Luc in HeLa, 72 h, hits give low values, concentration not given here.
`CN(C)CCS`: the activity change, negative = inhibition is inactive: 13.8%. For `C/C1=C2N=C(/C=C3N=C(/C(C)=C4\[N-][C@@](C)([C@@H]5N=C1[C@](C)(CCC(=O)NC[C@@H](C)OP(=O)(O)O[C@H]1[C@@H](O)[C@@H](n6cnc7cc(C)c(C)cc76)O[C@@H]1CO)[C@H]5CC(N)=O)[C@@](C)(CC(N)=O)[C@@H]4CCC(N)=O)[C@@](C)(CC(N)=O)[C@@H]\3CCC(N)=O)C(C)(C)[C@@H]/2CCC(N)=O.[C-]#N.[Co+2]`, the activity change, negative = inhibition is inactive: -4.57%.

With `C/C1=C2N=C(/C=C3N=C(/C(C)=C4\[N-][C@@](C)([C@@H]5N=C1[C@](C)(CCC(=O)NC[C@@H](C)OP(=O)(O)O[C@H]1[C@@H](O)[C@@H](n6cnc7cc(C)c(C)cc76)O[C@@H]1CO)[C@H]5CC(N)=O)[C@@](C)(CC(N)=O)[C@@H]4CCC(N)=O)[C@@](C)(CC(N)=O)[C@@H]\3CCC(N)=O)C(C)(C)[C@@H]/2CCC(N)=O.[C-]#N.[Co+3]`, the activity change, negative = inhibition is inactive: 0.206%.
